Results of unrelated studies side by side (data: NIAID ChemDB).

Common to all: whole-cell or culture tests; agent: HIV-2; endpoint: inhibition

An empty or dashed field is not shown. Rows are shuffled and stem from different studies. Inhibition is in % at the dose shown (toxicity tests: loss of growth or viability).

CSC[C@H](NC(=O)COc1cccc2cnccc12)C(=O)N[C@@H](Cc1ccccc1)[C@H](O)C(=O)N1CSC(C)(C)[C@H]1C(=O)NC(C)(C)C ; strain: ROD ; cells: ATH8 ; read by: trypan blue ; tested at: 0.4 µM ; result: 90%
CC(C)[C@H](NC(=O)c1ccc2ccccc2n1)C(=O)N[C@@H](Cc1ccccc1)[C@H](O)CN1CC[C@@H](OCc2ccncc2)C[C@H]1C(=O)NC(C)(C)C ; strain: ROD ; cells: CEMx174 + CEM ; read by: p24 ; tested at: 0.014 µM ; result: 90%
CCCC(=O)O[C@H]1CN2CC[C@H](O)[C@@H]2[C@@H](O)[C@@H]1O ; strain: ROD ; cells: H9 ; tested at: 4 µM ; result: 90%
Cc1cn([C@H]2C[C@H](N=[N+]=[N-])[C@@H](CO)O2)c(=O)[nH]c1=O ; cells: MT-4 ; read by: cytopathic effect / MTT ; tested at: 10 µg/mL ; result: 73.5%
COc1ccc(CN[C@@H](C(=O)N[C@H]2c3ccccc3C[C@H]2O)[C@H](O)[C@H](Cc2ccccc2)NC(=O)[C@@H](NC(=O)OCc2ccccc2)C(C)(C)C)cc1 ; strain: EHO ; cells: MT-4 ; read by: p24 ; tested at: 0.66 µM ; result: 90%
CO[C@H]1[C@@H](O)[C@H](n2cnc3c(N)ncnc32)[C@@H](O)[C@H](O)[C@@H]1O.O=C(O)/C=C/C(=O)O ; cells: MT-4 ; read by: cytopathic effect / MTT ; tested at: 10 µg/mL ; result: 35.7%
Cc1cn([C@H]2C[C@H](N=[N+]=[N-])[C@@H](CCP(O[Si](C)(C)C)O[Si](C)(C)C)O2)c(=O)[nH]c1=O ; strain: ROD ; cells: CEM ; read by: syncytia ; tested at: 400 µM ; result: 0%
Nc1ncnc2c1ncn2[C@H]1CC[C@@H](CO)O1 ; strain: LAV-2 ; cells: CEM ; read by: virus yield ; tested at: 0.1 µM ; result: 0%
O=C1N(Cc2ccc(CO)cc2)[C@H](Cc2ccccc2)[C@H](O)[C@@H](O)[C@@H](Cc2ccccc2)N1Cc1ccc(CO)cc1 ; strain: ROD ; cells: MT-2 ; tested at: 0.05 µM ; result: 90%
CC1(C)[C@@H](O[C@H]2O[C@H](C(=O)O)[C@@H](O)[C@H](O)[C@H]2O[C@@H]2O[C@H](C(=O)O)[C@@H](O)[C@H](O)[C@H]2O)CC[C@]2(C)[C@H]3C(=O)C=C4[C@@H]5C[C@@](C)(C(=O)O)CC[C@]5(C)CC[C@@]4(C)[C@]3(C)CC[C@@H]12 ; strain: rot ; cells: MT-4 ; read by: ELISA ; tested at: 1000 µg/mL ; result: 79.7%
CO[C@H]1[C@@H](O)[C@H](n2ccc(N)nc2=O)[C@@H](O)[C@H](O)[C@@H]1O ; cells: MT-4 ; read by: cytopathic effect / MTT ; tested at: 10 µg/mL ; result: 46.8%
O=C1N(Cc2ccc(CO)cc2)[C@H](Cc2ccccc2)[C@H](O)[C@@H](O)[C@@H](Cc2ccccc2)N1Cc1ccc(CO)cc1 ; strain: ROD ; cells: MT-2 ; read by: virus yield ; tested at: 0.05 µM ; result: 90%
Cc1cn([C@H]2C[C@H](N=[N+]=[N-])[C@@H](CO)O2)c(=O)[nH]c1=O ; strain: MS ; cells: PBMC ; read by: RT activity ; tested at: 2.5 µg/mL ; result: 90%
O=C(NCc1ccc(F)cc1)c1nc(N2CCCCS2(=O)=O)c2cccnc2c1O ; tested at: 0.008 µM ; result: 95%

2 of the rows above, restated:

compound,strain,cells,read by,tested at,result
Cc1cn([C@H]2C[C@H](N=[N+]=[N-])[C@@H](CCP(O[Si](C)(C)C)O[Si](C)(C)C)O2)c(=O)[nH]c1=O,ROD,CEM,syncytia,400 µM,0%
CO[C@H]1[C@@H](O)[C@H](n2ccc(N)nc2=O)[C@@H](O)[C@H](O)[C@@H]1O,,MT-4,cytopathic effect / MTT,10 µg/mL,46.8%